Pooled drug test results. Numbers come from NIAID ChemDB, via PubChem.

All rows: growth or infection tests; species: Human cytomegalovirus; method: plaque count; measure: EC50

Neighbouring rows are from separate reports.

compound | cell line | strain | result
OCC1OC(n2c(SCc3ccccc3)nc3nc4cc(Cl)c(Cl)cc4nc32)C(O)C1O | HFF | TOWNE | 4.2 µM
Nc1nc2c(ncn2[C@H]2C[C@]23C[C@@H]3CO)c(=O)[nH]1 | HFF | TOWNE | >100 µM
O=c1[nH]cnc2c1ncn2CCOCP(=O)(O)O | HEL | 2 strains | 200 µg/mL
Nc1ncnc2c1ncn2CC/C=C/P(=O)(O)O | MRC-5 | AD169 | >300 µM
N#Cc1cn([C@@H]2O[C@H](CO)[C@@H](O)[C@@H]2O)c2ncnc(N)c12 | HFF | TOWNE | 1.7 µM
C/C=C1/CCC23C[C@H]1C[C@@H]2CC[C@H]1[C@]2(C)COC(C)(C)O[C@@H]2CC[C@@]13C | HFF |  | >500 µM
Nc1nc2c(ncn2[C@H]2C=C[C@@H](CO)CC2)c(=O)[nH]1 |  |  | 1–10 µM
OCC1OC(n2cnc3nc4cc(Cl)c(Cl)cc4nc32)C(O)C1O | KB | TOWNE | 32 µM
C[C@@]1(O)[C@H](O)CC[C@@]2(C)[C@H]1CC[C@H]1C[C@@H]3CC12CC[C@]3(O)CSCc1ccccc1 |  |  | 3.8 µM
Nc1nc2c(ncn2CC(CO)OCP(=O)(O)O)c(=O)[nH]1 | HEL | 2 strains | 0.15 µg/mL
Nc1nc2c(ncn2[C@H]2C[C@@]23C[C@@H]3CO)c(=O)[nH]1 | HFF | TOWNE | >100 µM
CC[C@H](C)[C@H](N)C(=O)O[C@H]1C[C@H](n2cc(/C=C/Br)c(=O)[nH]c2=O)O[C@@H]1COP1(=O)OCc2cccc(C)c2O1 | HELF | AD169 | >128 µg/mL
C[C@@]12COCO[C@@H]1CC[C@@]1(C)[C@H]2CC[C@H]2C[C@@H]3CC21CCC31COCO1 | HFF |  | >500 µM
O=c1[nH]c(=S)n([C@H]2C[C@H](O)[C@@H](CO)O2)cc1I | MRC-5 | AD169 | >271 µM
Cc1ccc(Cn2c(N)c(C#N)c3c(N)ncnc32)cc1 | HFF | TOWNE | 0.3 µM
C[C@@]1(CO)[C@H](O)CC[C@@]2(C)[C@H]1CC[C@H]1C[C@@H]3C[C@@]12CC[C@]3(O)CO |  |  | 1 µM
CCCOC(=O)c1cc(O)c(O)c(O)c1 | HEL | DAVIS | 16 µg/mL
Nc1nc2c(ncn2COCCO)c(=O)[nH]1 | MRC-5 | AD169 | 44 µM
O=C(NCCc1c[nH]c2ccccc12)C1=Cc2ccncc2CC1 | HFF | 4760RECPOLA1-1-1 | 0.3 µM
CCC(C)C(N)C(=O)O[C@H]1C[C@H](n2cc(/C=C/Br)c(=O)[nH]c2=O)O[C@@H]1COP1(=O)OCc2cccc(C)c2O1 | HELF | AD169 | >128 µg/mL
CC(C)Nc1nc2nc3cc(Cl)c(Cl)cc3nc2n1C1OC(CO)C(O)C1O | HFF | TOWNE | 32 µM
O=c1[nH]c(=O)n([C@H]2C[C@H](O)[C@@H](CO)O2)cc1F | MRC-5 | AD169 | >362 µM
COC(=O)[C@H](C)NP(=O)(OC[C@@H]1C[C@]12C[C@@H]2n1cnc2c(N)ncnc21)Oc1ccccc1 | HFF | TOWNE | 0.38 µM
Nc1nc2c(ncn2COC(CO)CO)c(=O)[nH]1 | HEL | U9070 (ganciclovir-resistant) | 5.6 µg/mL
O=C1NCc2c1c1c3ccccc3[nH]c1c1[nH]c3ccccc3c21 | HEF | AD169 | 0.32 µM
CC(=O)O[C@H]1C[C@H](n2cc(/C=C/Br)c(=O)[nH]c2=O)O[C@@H]1COP1(=O)OCc2cccc(C)c2O1 | HELF | AD169 | >128 µg/mL
Cc1cn([C@@H]2O[C@H](CO)[C@@H](O)[C@@H]2O)c(=S)[nH]c1=O | MRC-5 | AD169 | >365 µM
Nc1nc2c(ncn2[C@H]2C[C@@]23C[C@H]3CO)c(=O)[nH]1 | HFF | TOWNE | >100 µM
Nc1nc2c(ncn2[C@@H]2C=C[C@H](CO)CC2)c(=O)[nH]1 | HEL | DAVIS | 0.83 µg/mL
CC1(C)CCC[C@@]2(C)[C@H]1CC[C@H]1C[C@@H]3CC12CCC3=O | HFF |  | >500 µM
Nc1ccn(C[C@@H](CO)OCP(=O)(O)O)c(=O)n1 | HEL | CMV5USA | 0.1 µg/mL
Nc1ncnc2c1ncn2[C@@H]1CC(F)(F)[C@@H](O)[C@H]1O | HFF |  | 6.2 µM
CC#Cc1cn([C@@H]2O[C@H](CO)[C@@H](O)[C@@H]2O)c(=O)[nH]c1=O | MRC-5 | AD169 | >100 µM
O=c1c(-c2ccc(O)cc2)coc2cc(O)cc(O)c12 | HEF | Isolate 6 | 26.7 µM
Nc1ncnc2c1ncn2CCOCP(=O)(O)O | HEL | 2 strains | 25 µg/mL
NCC(O)c1ccc(O)c(O)c1 | HEL | DAVIS | 88 µg/mL
Cc1cccc2c1OP(=O)(OC[C@H]1O[C@@H](n3cc(/C=C/Br)c(=O)[nH]c3=O)C[C@@H]1OC(=O)[C@H]1CCCN1)OC2 | HELF | AD169 | >128 µg/mL
Cc1cc(=O)oc2cc(O)c(O)cc12 | HEL | DAVIS | 9.5 µg/mL
C[C@@]1(CO)[C@H](O)CC[C@@]2(C)[C@H]1CC[C@H]1C[C@@H]3C[C@@]12CC[C@]31CO1 |  |  | 0.9 µM
COC(=O)c1cc(O)c(O)c(O)c1 | HEL | DAVIS | 7.6 µg/mL
Nc1ncnc2c1ncn2CC/C=C\P(=O)(O)O | MRC-5 | AD169 | >300 µM
CC1(C)OC[C@]2(C)[C@@H](CC[C@@]3(C)[C@H]2CC[C@H]2C[C@@H]4CC23CC[C@@]4(C)O)O1 | HFF |  | >500 µM
Nc1ncnc2c1ncn2OC(/C=C/P(=O)(O)O)CO | MRC-5 | AD169 | >300 µM
Nc1nc2c(ncn2CCOCP(=O)(O)O)c(=O)[nH]1 | HEL | 2 strains | 0.25 µg/mL
O=C(O)C[C@H](NCCN[C@@H](CC(=O)O)C(=O)O)C(=O)O | HEL | U9070 (ganciclovir-resistant) | 7.9 µg/mL
CC#Cc1cn([C@@H]2O[C@H](COP(=O)(O)OCC(F)(F)F)[C@@H](O)[C@@H]2O)c(=O)[nH]c1=O | MRC-5 | AD169 | >100 µM
Nc1ncc2ncn(CCOCP(=O)(O)O)c2n1 | HEL | 2 strains | 200 µg/mL
Nc1nc2c(ncn2COC(CO)CO)c(=O)[nH]1 | HEF | A6245 | 1.8 µM
CC#Cc1cn([C@@H]2O[C@H](COP(=O)(O)OCC)[C@@H](O)[C@@H]2O)c(=O)[nH]c1=O | MRC-5 | AD169 | >100 µM
O=c1[nH]cccc1O | HEL | AD169 | >200 µg/mL
Nc1ncnc2c1ncn2OCC/C=C\P(=O)(O)O | MRC-5 | AD169 | >300 µM
Nc1nc(N)c2ncn(CCOCP(=O)(O)O)c2n1 | HEL | 2 strains | 10 µg/mL
CC#Cc1cn([C@@H]2O[C@H](COP(=O)(O)Oc3ccccc3)[C@@H](O)[C@@H]2O)c(=O)[nH]c1=O | MRC-5 | AD169 | >100 µM

3 of the rows above, restated:

compound,cell line,strain,result
COC(=O)[C@H](C)NP(=O)(OC[C@@H]1C[C@]12C[C@@H]2n1cnc2c(N)ncnc21)Oc1ccccc1,HFF,TOWNE,0.38 µM
Nc1nc2c(ncn2COCCO)c(=O)[nH]1,MRC-5,AD169,44 µM
OCC1OC(n2c(SCc3ccccc3)nc3nc4cc(Cl)c(Cl)cc4nc32)C(O)C1O,HFF,TOWNE,4.2 µM

ECn: concentration that inhibits the pathogen or its effect by n%. An empty or dashed field is not shown. a–b is a range or a potency band.